Here are results for one molecule from patent US10358638B2, “Method of producing 1,5-pentadiamine using lysine decarboxylase mutant having improved thermal stability” (AJINOMOTO CO., INC., priority 2014, dated 2019).

This series in a line: Lysine decarboxylation reaction (1,5-PD production) in the presence of chelating agent. Details: species or system Escherichia coli. The settings on record: 0.1 mM iron sulfate, 37° C., 16 hours. The procedure: In the same manner as in Example 4, microbial cells of E. coli JM109/pCadA234 (double mutant expressing CadA at high level) were cultured, the cultured medium was prepared, and after completing the cultivation, incubated at 60° C. for one hour. The activity after incubation was measured, and the cultured medium was diluted so that the enzyme activity became 380 units/mL. 30 mL of this cultured medium containing the enzyme was added to 270 mL of a reaction solution containing 250 g/L of lysine hydrochloride (Ajinomoto Co., Ltd.), 26.5 mg/L of pyridoxal phosphate, 27.8 mg/L (0.1 mM) of iron sulfate heptahydrate and 111.6 mg/L (0.3 mM) of disodium dihydrogen ethylenediaminetetraacetate (EDTA), and the mixture was reacted at 37° C. for 16 hours. No EDTA was added in a control reaction. The pH value was 5.3 when the reaction was started, and elevated with progress of the reaction, but was kept at 7.0 by adding 30% (v/v) sulfuric acid when the pH value reached 7.0.
On the other hand, when EDTA was added, the inhibition of the reaction is restored and lysine was completely consumed. When EDTA was added, 135 g/L of 1,5-PD was formed and lysine was converted at a yield of 98%. […]

B1: pCadA234: lysine decarboxylase (CadA) V3I/A590T double mutant (protein, UniProt P0A9H3 1-715, looked up, variant V3I A590T)
Inducible lysine decarboxylase: MNIIAILNHMGVYFKEEPIRELHRALERLNFQIVYPNDRDDLLKLIENNARLCGVIFDWDKYNLELCEEISKMNENLPLYAFANTYSTLDVSLNDLRLQISFFEYALGAAEDIANKIKQTTDEYINTILPPLTKALFKYVREGKYTFCTPGHMGGTAFQKSPVGSLFYDFFGPNTMKSDISISVSELGSLLDHSGPHKEAEQYIARVFNADRSYMVTNGTSTANKIVGMYSAPAGSTILIDRNCHKSLTHLMMMSDVTPIYFRPTRNAYGILGGIPQSEFQHATIAKRVKETPNATWPVHAVITNSTYDGLLYNTDFIKKTLDVKSIHFDSAWVPYTNFSPIYEGKCGMSGGRVEGKVIYETQSTHKLLAAFSQASMIHVKGDVNEETFNEAYMMHTTTSPHYGIVASTETAAAMMKGNAGKRLINGSIERAIKFRKEIKRLRTESDGWFFDVWQPDHIDTTECWPLRSDSTWHGFKNIDNEHMYLDPIKVTLLTPGMEKDGTMSDFGIPASIVAKYLDEHGIVVEKTGPYNLLFLFSIGIDKTKALSLLRALTDFKRAFDLNLRVKNMLPSLYREDPEFYENMRIQELTQNIHKLIVHHNLPDLMYRAFEVLPTMVMTPYAAFQKELHGMTEEVYLDEMVGRINANMILPYPPGVPLVMPGEMITEESRPVLEFLQMLCEIGAHYPGFETDIHGAYRQADGRYTVKVLKEESKK
As for B1, under “0.3 mM EDTA added, 250 g/L lysine hydrochloride”, the “1,5-PD formed” value came out at 135 g/L. In addition, the “concentration of 1,5-PD in the reaction solution” value (EDTA not added) amounted to 41.8 g/L.
